Anti-infective test results gathered from many reports (values: NIAID ChemDB through PubChem).

Common to all: whole-cell or culture tests; species: Varicella zoster virus; read-out: EC50

Conditions beyond the fields shown may differ between rows.

smiles,cells,strain or isolate,read by,result
Nc1nc2c(ncn2CC(CO)OCP(=O)(O)O)c(=O)[nH]1,HEL,4 strains,cytopathic effect,0.07 µg/mL
Nc1cc(OCCOCP(=O)(O)O)nc(N)n1,HEL,YS,plaque count,3.9 µM
Nc1nc(OCCOCP(=O)(O)O)cc(OCCOCP(=O)(O)O)n1,HEL,YS,cytopathic effect,50 µg/mL
Nc1nc2c(ncn2OCC/C=C\P(=O)(O)O)c(=O)[nH]1,MRC-5,ELLEN,plaque count,>300 µM
Nc1nc2c(ncn2COCCO)c(=O)[nH]1,HFF,-,plaque count,3.5 µM
Nc1nc2ncn(COCCCl)c2c(=O)[nH]1,VERO,YS/R (TK-),cytopathic effect,>128 µg/mL
COC(=O)[C@H](C)NP(=O)(OC[C@@H]1C[C@]12C[C@@H]2n1cnc2c(N)ncnc21)Oc1ccccc1,HFF,-,plaque count,>8.5 µM
Nc1nc2c(ncn2[C@H]2C=C[C@@H](CO)CC2)c(=O)[nH]1,HEL,YS (TK+),plaque count,0.12 µg/mL
C=C1[C@H](CO)[C@@H](O)C[C@@H]1n1cnc2c(=O)[nH]c(N)nc21,HFF,ELLEN,-,30–60 µM
Nc1nc2c(ncn2[C@H]2C[C@@]23C[C@@H]3CO)c(=O)[nH]1,HFF,-,plaque count,>399 µM
COC(=O)[C@H](C)NP(=O)(OC[C@H]1C/C1=C\n1cnc2c(=O)[nH]c(N)nc21)Oc1ccccc1,HFF,-,plaque count,>211 µM
Nc1nc2c(ncn2OC(/C=C/P(=O)(O)O)CO)c(=O)[nH]1,MRC-5,ELLEN,plaque count,>300 µM
COC(=O)[C@H](C)NP(=O)(OC[C@H]1C/C1=C/n1cnc2c(OC)nc(N)nc21)Oc1ccccc1,HFF,-,plaque count,0.12 µM
O=c1[nH]c(=S)n([C@@H]2O[C@H](CO)[C@@H](O)[C@@H]2O)cc1Cl,MRC-5,HOSEN,plaque count,263 µM
O=C1Cn2cc(C(=O)NCc3ccc(Cl)cc3)c(=O)c3cc(CN4CCOCC4)cc(c32)N1,-,-,-,0.06 µM
C=Cc1cn([C@H]2C[C@H](O)[C@@H](CO)O2)c(=O)[nH]c1=O,HEL,-,plaque count,1.18 µM
O=c1[nH]c(=O)n([C@H]2C[C@H](O)[C@@H](COP3(=O)OCc4cc5ccccc5cc4O3)O2)cc1/C=C/Br,HELF,OKA,plaque count,0.008 µg/mL
Nc1ncnc2c1ncn2[C@@H]1C[C@@H](O)[C@H](CO)O1,HFF,-,-,>100 µM
C[C@@H]1CC[C@H]2[C@@H](C)C(=O)O[C@@H]3OC4(C)CC[C@@H]1[C@]32OO4,HEL,OKA,plaque count,>50 µg/mL
CCCCCCCCCCc1cc2cn([C@H]3C[C@H](O)[C@@H](CO)O3)c(=O)nc2o1,HEL,Strains YS and Oka,plaque count,0.012 µM
Cc1cn([C@H]2C[C@H](O)[C@@H](CO)O2)c(=O)[nH]c1=O,MRC-5,HOSEN,plaque count,>413 µM
Nc1nc(N)c2nnn(C[C@H]3CC[C@@H](CO)C3)c2n1,HEL,YS,plaque count,>50 µg/mL
Nc1ccn(C[C@@H](CO)OCP(=O)(O)O)c(=O)n1,HEL,4 strains,cytopathic effect,0.25 µg/mL
COC(=O)[C@H](C)NP(=O)(OCC1C/C1=C\n1cnc2c(N)ncnc21)Oc1ccccc1,HFF,-,plaque count,111 µM
CCc1cn([C@@H]2O[C@H](CO)[C@@H](O)[C@@H]2F)c(=O)[nH]c1=O,HEL,-,plaque count,0.48 µM
Nc1nc2c(nnn2C[C@H]2CC[C@@H](CO)C2)c(=O)[nH]1,HEL,OKA,plaque count,>200 µg/mL
Nc1ncnc2c1ncn2[C@@H]1C=C(CO)[C@@H](O)[C@H]1O,HEL,OKA,cytopathic effect,1 µg/mL
Nc1[nH]c(=O)nc2c1ncn2/C=C1/C[C@H]1CO,HFF,-,cytopathic effect,>429 µM
Nc1ncnc2c1ncn2CCOCP(=O)(O)O,HEL,YS,plaque count,23.7 µM
O=c1[nH]c(=O)n([C@H]2C[C@H](O)[C@@H](CO)O2)cc1C1CCCC1,HEL,OKA YS,plaque count,>170 µM
Nc1ncnc2c1ncn2CC/C=C/P(=O)(O)O,MRC-5,ELLEN,plaque count,>300 µM
Nc1nc2c(ncn2[C@H]2C[C@@]23C[C@H]3CO)c(=O)[nH]1,HFF,-,plaque count,>399 µM
O=c1[nH]c(=O)n([C@H]2C[C@H](O)[C@@H](COP3(=O)OCc4cc(Cl)ccc4O3)O2)cc1/C=C/Br,HELF,OKA,plaque count,0.008 µg/mL
Nc1ncnc2c1ncn2[C@@H]1C[C@@H](O)[C@H](CO)O1,HFF,-,-,>100 µM
Nc1ncnc2c1ncn2OCC/C=C/P(=O)(O)O,MRC-5,ELLEN,plaque count,>300 µM
O=c1[nH]c(=O)n([C@@H]2O[C@H](CO)[C@@H](O)[C@@H]2F)cc1I,HEL,-,plaque count,0.212 µM
COC(=O)[C@H](C)NP(=O)(OC[C@@H]1C[C@]12C[C@@H]2n1cnc2c(N)ncnc21)Oc1ccccc1,HFF,-,plaque count,>8.5 µM
CCCCCCCCc1cc2cn([C@H]3C[C@H](O)[C@@H](CO)S3)c(=O)nc2o1,HEL,Strains YS and Oka,plaque count,0.016 µM
Nc1nc2c(ncn2[C@H]2C[C@]23C[C@@H]3CO)c(=O)[nH]1,HFF,-,plaque count,>399 µM
Nc1ncnc2ncn(COCCCl)c12,VERO,YS (TK+),cytopathic effect,>128 µg/mL
O=c1[nH]c(=O)n([C@H]2C[C@H](O)[C@@H](COP3(=O)OCc4cc(-c5ccccc5)ccc4O3)O2)cc1/C=C/Br,HELF,OKA,plaque count,0.031 µg/mL
Nc1ncnc2c1ncn2C[C@@H](CO)OCP(=O)(O)O,HEL,YS,plaque count,0.54 µM
O=c1[nH]cnc2c1ncn2CC(CO)OCP(=O)(O)O,HEL,4 strains,cytopathic effect,>400 µg/mL
O=c1[nH]c(=O)n([C@@H]2O[C@H](CO)[C@@H](O)[C@@H]2O)cc1/C=C/I,HEL,-,plaque count,0.0035 µM
Nc1nc(Cl)c2ncn(C[C@H]3CC[C@@H](CO)C3)c2n1,HEL,YS,plaque count,>20 µg/mL
O=c1[nH]c(=S)n([C@H]2C[C@H](O)[C@@H](CO)O2)cc1F,MRC-5,HOSEN,plaque count,>383 µM
O=C(NCc1ccc(Cl)cc1)c1cn2c(CO)cc3cc(CN4CCOCC4)cc(c1=O)c32,-,-,-,0.16 µM
CCc1cn([C@@H]2O[C@H](CO)[C@@H](O)[C@@H]2O)c(=O)[nH]c1=O,HEL,-,plaque count,>588 µM
Nc1nc(N)c2ncn(CCOCP(=O)(O)O)c2n1,HEL,PCV-resistant/B,plaque count,3.5 µg/mL
Cc1cccc2c1OP(=O)(OC[C@H]1O[C@@H](n3cc(/C=C/Br)c(=O)[nH]c3=O)C[C@@H]1OC(=O)[C@H](C)N)OC2,HELF,OKA,plaque count,0.039 µg/mL
Cc1cn([C@@H]2O[C@H](CO)[C@@H](O)[C@@H]2O)c(=O)[nH]c1=O,HEL,YS,plaque count,0.82 µM
CCC(=O)O[C@H]1C[C@H](n2cc(/C=C/Br)c(=O)[nH]c2=O)O[C@@H]1COP1(=O)OCc2cccc(C)c2O1,HELF,OKA,plaque count,0.03 µg/mL
Nc1nc(Cl)nc2c1ncn2/C=C1/CC1CO,HFF,-,cytopathic effect,>0.8 µM
O=C(O)CP(=O)(O)O,HEL,OKA,plaque count,7.1 µg/mL
Nc1ncnc2c1ncn2CCOCP(=O)(O)O,HEL,Oka penciclovir-resistant/B,cytopathic effect,112.7 µM
O=c1[nH]c(=O)n([C@H]2C[C@H](O)[C@@H](CO)O2)cc1F,MRC-5,HOSEN,plaque count,>385 µM
Cc1cn([C@@H]2C[C@@H](O)[C@H](CO)O2)c(=O)[nH]c1=O,HFF,-,-,4.52 µM
CC(C)C(=O)O[C@H]1C[C@H](n2cc(/C=C/Br)c(=O)[nH]c2=O)O[C@@H]1COP1(=O)OCc2ccccc2O1,HELF,OKA,plaque count,0.026 µg/mL
Cc1cn([C@H]2C[C@H](O)[C@@H](CO)O2)c(=O)[nH]c1=O,HEL,OKA YS,plaque count,>250 µM
Nc1nc2c(ncn2COCCO)c(=O)[nH]1,HEL,YS,plaque count,4 µM
Nc1nc2c(ncn2[C@@H]2C=C[C@H](CO)CC2)c(=O)[nH]1,HEL,YS (TK+),plaque count,0.5 µg/mL
O=c1[nH]c(=O)n([C@H]2C[C@H](O)[C@@H](CO)S2)cc1C1CC1,HEL,OKA YS,plaque count,0.09 µM
O=c1ccn([C@H]2C[C@H](O)[C@@H](CO)O2)c(=S)[nH]1,MRC-5,HOSEN,plaque count,>412 µM
Nc1cc(OCCOCP(=O)(O)O)nc(N)n1,-,OKA,cytopathic effect,2.7 µM
Nc1ccn(C[C@@H](CO)OCP(=O)(O)O)c(=O)n1,HEL,YS,plaque count,0.65 µM
O=c1[nH]c(=O)n([C@H]2C[C@H](O)[C@@H](CO)O2)cc1C1CCCCC1,HEL,OKA YS,plaque count,>160 µM
O=c1[nH]c(=O)n([C@H]2C[C@H](O)[C@@H](CO)S2)cc1/C=C/Br,HEL,YS,plaque count,0.024 µM
Cc1cccc2c1OP(=O)(OC[C@H]1O[C@@H](n3cc(/C=C/Br)c(=O)[nH]c3=O)C[C@@H]1OC(=O)[C@@H](N)CC(C)C)OC2,HELF,OKA,plaque count,0.033 µg/mL
Nc1nc(N)c2ncn(C[C@H]3CC[C@@H](CO)C3)c2n1,HEL,OKA,plaque count,>50 µg/mL
Nc1cc(OC[C@H](CO)OCP(=O)(O)O)nc(N)n1,-,OKA,cytopathic effect,0.51 µM
CCC(C)C(N)C(=O)O[C@H]1C[C@H](n2cc(/C=C/Br)c(=O)[nH]c2=O)O[C@@H]1COP1(=O)OCc2cccc(C)c2O1,HELF,OKA,plaque count,0.026 µg/mL
O=c1[nH]c(=O)n([C@@H]2O[C@H](CO)[C@@H](O)[C@@H]2O)cc1C=C(Br)Br,HEL,-,plaque count,18.8 µM
Nc1nc2c(ncn2CC/C=C\P(=O)(O)O)c(=O)[nH]1,MRC-5,ELLEN,plaque count,>300 µM
O=c1[nH]cnc2c1ncn2CCOCP(=O)(O)O,HEL,4 strains,cytopathic effect,>400 µg/mL
Nc1nc2c(ncn2C[C@H]2CC[C@@H](CO)C2)c(=O)[nH]1,HEL,YS,plaque count,>200 µg/mL
Nc1ncnc2c1ncn2CC/C=C\P(=O)(O)O,MRC-5,ELLEN,plaque count,>300 µM
C[C@H](Cn1cnc2c(NC3CC3)ncnc21)OCP(=O)(O)O,-,OKA (TK+),-,0.009 µg/mL
Nc1ccn(C[C@@H](CO)OCP(=O)(O)O)c(=O)n1,HEL,PMEDAP-resistant,plaque count,0.082 µg/mL
O=c1ccn(CC(CO)OCP(=O)(O)O)c(=O)[nH]1,HEL,4 strains,cytopathic effect,300 µg/mL

The last 4 rows once more:

smiles,cells,strain or isolate,read by,result
Nc1ncnc2c1ncn2CC/C=C\P(=O)(O)O,MRC-5,ELLEN,plaque count,>300 µM
C[C@H](Cn1cnc2c(NC3CC3)ncnc21)OCP(=O)(O)O,-,OKA (TK+),-,0.009 µg/mL
Nc1ccn(C[C@@H](CO)OCP(=O)(O)O)c(=O)n1,HEL,PMEDAP-resistant,plaque count,0.082 µg/mL
O=c1ccn(CC(CO)OCP(=O)(O)O)c(=O)[nH]1,HEL,4 strains,cytopathic effect,300 µg/mL

a–b is a range or a potency band. An empty or dashed field is not shown. ECn is the concentration giving n% inhibition of infection, replication or growth.